Results of unrelated studies side by side (data: NIAID ChemDB).

Common to all: host cell toxicity; endpoint: CC50

Conditions beyond the fields shown may differ between rows. An empty or dashed field is not shown. a–b is a range or a potency band. CCn: concentration that lowers growth or viability of the cells by n%.

structure,cells,read by,result
CCCc1cc(=O)oc2c(C(=O)CC)c(O)c3c(c12)OC(C)(C)C=C3,CV-1,-,80 µg/mL
C=CCn1c(CN2c3ccccc3Nc3nc(=O)c4ccccc4nc32)nc2ccccc21,MCF-7 breast cancer cells,sulforhodamine,0.667 µg/mL
O=c1c(C2CCCC2)c(O)c2cccnc2n1O,HeLa,-,<100 µM
COc1ccc(-n2c(-c3ccccc3)c(C)c(=O)c3cc(C(C)C)ccc32)cc1,HELA-OHIO,MTT,>2.5 µg/mL
CCCc1cc(=O)oc2c(C(=O)CC)c(O)c(C(=O)CC)c(O)c12,CV-1,-,80 µg/mL
CCCCCCCCCCC(=O)O[C@@H]1[C@@H](C)[C@@]2(O)[C@@H](C=C(CO)C[C@]3(O)C(=O)C(C)=C[C@@H]23)[C@@H]2C(C)(C)[C@]12OC(=O)CCCCCCCCCC,C8166,MTT,>200 µM
Nc1nc2c(ncn2COC(CO)CO)c(=O)[nH]1,P3HR-1,cell count,>700 µM
Cc1cc(C)n(-c2nc3c(c(=O)n2-c2ccc(OCC(N)=O)cc2)C[C@@H](C)N(C(=O)c2ccc(Br)c(C(F)(F)F)c2)C3)n1,HepG2.117,luminescence,>0.5 µM
CC(Nc1cc(=O)n(O)c2ncccc12)c1ccccc1,HeLa,-,<100 µM
CC(C)(C)OC(=O)Nc1ccc2c(c1)Cc1cc(NC(N)=S)ccc1-2,Ava5-EG(delta4AB)SEAP,MTS,>1 µM
COc1cc([C@@H]2CCc3ccc(O)cc3O2)ccc1O,NCI-H187,resazurin,>20 µg/mL
CCOP(=O)(CO[C@]1(C2CC2)C=C[C@H](n2cnc3c(N)ncnc32)C1)OCC,T4,XTT / absorbance,98 µM
CCc1cn([C@H]2C[C@H](O)[C@@H](CO)O2)c(=O)[nH]c1=O,P3HR-1,cell count,578 µM
O=c1[nH]c(=O)n([C@H]2C[C@H](O)[C@@H](CO)O2)cc1I,HELF,-,8 µg/mL
Nc1cnc2c(c1)c(O)c(-c1ccccc1)c(=O)n2O,HeLa,-,<100 µM
NC(=S)Nc1cccc(OCCCOc2ccc(-c3ccccc3)cc2)c1,Ava5-EG(delta4AB)SEAP,MTS,>1 µM
CCOP(=O)(CO[C@@]1(C2CC2)C[C@@H](n2cnc3c(N)ncnc32)[C@H](C)[C@@H]1C)OCC,T4,XTT / absorbance,>100 µM
O=c1cc(NCc2ccc(F)cc2)c2cccnc2n1O,HeLa,-,<100 µM
COc1ccc(-c2c(C)c(=O)c3cc(C(C)C)ccc3n2C)cc1,HELA-OHIO,MTT,5.8 µg/mL
N=c1nc(N)c2ncn([C@@H]3O[C@H](CO)[C@@H](O)[C@H]3O)c2c(N)n1,HFF (dividing cells),-,>100 µM
CCn1c(-c2ccsc2)cc(=O)c2cc(C(C)C)ccc21,HELA-OHIO,MTT,15 µg/mL
O=c1[nH]c(=O)n([C@H]2C[C@H](O)[C@@H](CO)O2)cc1I,OMK,cell count,133 µM
COc1ccc(-c2c(C)c(=O)c3cc(OCC(C)C)c(C)cc3n2C)cc1C,HeLa S3,MTT,>4 µg/mL
CC(C)[C@H](NC(=O)[C@H](Cc1ccccc1)NS(C)(=O)=O)C(=O)N[C@@H](Cc1ccccc1)[C@@H](O)[C@H](O)[C@H](Cc1ccccc1)NC(=O)[C@@H](NC(=O)[C@H](Cc1ccccc1)NS(C)(=O)=O)C(C)C,PBLC,-,>0.5 µM
O=c1cc(N2CCCC(CN3CCOCC3)C2)c2cccnc2n1O,HeLa,-,<100 µM
CCCc1cc(=O)oc2cc(OCC(C)(C)C(=O)OC)c3c(c12)OC(C)(C)C=C3,CV-1,neutral red,25 µg/mL
CC[C@@H](C)[C@@H]1NC(=O)[C@@H](Cc2ccc(Cl)cc2)NC(=O)[C@H](CC(C)C)NC(=O)[C@H](Cc2c[nH]c3ccccc23)NC(=O)[C@@H](CCCN)NC(=O)[C@@H](CCCN)NC1=O,Hep2G,luminescence,>100 µM
Cc1c(-c2ccccc2)n(-c2ccc(F)cc2)c2ccc(C(C)C)cc2c1=O,HELA-OHIO,MTT,>2 µg/mL
Cc1cc(C)n(-c2nc3c(c(=O)n2-c2ccc(N4CC[C@H](O)C4)nc2)C[C@@H](C)N(C(=O)c2ccc(Br)c(C(F)(F)F)c2)C3)n1,HepG2.117,luminescence,>0.5 µM
COc1ccc(NC(=O)NCC2CCc3ccccc3N2)c(OC)c1,PBMC,-,50 µM
CC(C)(C)S(=O)(=O)C[C@@H](Cc1cccc2ccccc12)C(=O)NCCC(=O)N[C@@H](Cc1ccccc1)[C@@H](O)[C@H](O)[C@H](Cc1ccccc1)NC(=O)CCNC(=O)[C@H](Cc1cccc2ccccc12)CS(=O)(=O)C(C)(C)C,PBLC,-,>10 µM
Cn1cncc1C(=O)c1nccc2c1[nH]c1ccccc12,H-116,-,>5 µg/mL
Cc1cc(C)n(-c2nc3c(c(=O)n2-c2cc(Cl)c4c(c2)ncn4C)C[C@@H](C)N(C(=O)c2ccc(Br)c(C(F)(F)F)c2)C3)n1,HepG2.117,luminescence,>0.5 µM
CC(C)C[C@@H]1NC(=O)[C@@H](CC(C)C)NC(=O)[C@@H](CCCN)NC(=O)[C@H](CC(N)=O)NC(=O)[C@H](C(C)C)NC(=O)[C@H](Cc2c[nH]c3ccccc23)NC1=O,Hep2G,luminescence,>100 µM
Nc1c(-c2nc3ccccc3[nH]2)cc(-c2ccccc2)n1-c1cccc(Br)c1,MCF-7 breast cancer cells,sulforhodamine,2.12 µg/mL
C/C(=N\NC(=O)c1ccccc1)c1cccc(/C(C)=N/NC(=O)c2ccccc2)n1,MCF-7,MTT,41.15 µM
O=C(NCCc1ccc2c(n1)NCCC2)Nc1csc(-c2ccc(C(F)(F)F)cc2)n1,PBMC,-,14 µM
COc1cc(/C=C/C(=O)O[C@@H]2[C@@H](C)[C@@]3(O)[C@@H](C=C(CO)C[C@]4(O)C(=O)C(C)=C[C@@H]34)[C@@H]3C(C)(C)[C@]23OC(C)=O)ccc1O,C8166,MTT,97.47 µM
NC(=S)Nc1ccc2c(c1)-c1ccccc1C2=O,Ava5-EG(delta4AB)SEAP,MTS,>1 µM
CC(C)[C@H](NC(=O)CCS(=O)(=O)c1ccncc1)C(=O)N[C@@H](Cc1ccccc1)[C@@H](O)[C@H](O)[C@H](Cc1ccccc1)NC(=O)[C@@H](NC(=O)CCS(=O)(=O)c1ccncc1)C(C)C,PBLC,-,>1.2 µM
CC(NC(=O)NCCc1ccc2c(n1)NCCC2)c1cccc2ccccc12,PBMC,-,50 µM
Cc1cc(C)n(-c2cccc(-c3cc(=O)n(O)c4ncccc34)c2)n1,HeLa,-,<100 µM
CC(C)C[C@@H]1NC(=O)[C@@H](Cc2ccc(Cl)cc2)NC(=O)[C@@H](CCCN)NC(=O)[C@H](CC(N)=O)NC(=O)[C@H](C(C)C)NC(=O)[C@@H](CC(C)C)NC1=O,Hep2G,luminescence,>100 µM
Nc1nc(=O)n([C@@H]2O[C@H](CO)[C@@H](O)[C@@H]2F)cc1I,RF,cell count,≥383 µM
CC(C)[C@H](NC(=O)[C@H](Cc1cccc2ccccc12)CS(=O)(=O)C(C)(C)C)C(=O)N[C@@H](Cc1ccccc1)[C@@H](O)[C@H](O)[C@H](Cc1ccccc1)NC(=O)[C@@H](NC(=O)[C@H](Cc1cccc2ccccc12)CS(=O)(=O)C(C)(C)C)C(C)C,PBLC,-,>0.003 µM
Cc1cc(C)n(-c2nc3c(c(=O)n2-c2ccc(OC[C@@H](C)O)cc2)C[C@@H](C)N(C(=O)c2ccc(Br)c(C(F)(F)F)c2)C3)n1,HepG2.117,luminescence,>0.5 µM
CCN(CC)CCNc1cc(C)nc2c1ccc1c2ccc2c(NCCN(CC)CC)cc(C)nc21,Macrophage line RAW 264.7,MTT,0.00348 µM
COc1cccc(CC(=O)NCCc2ccc3c(n2)NCCC3)c1,PBMC,-,50 µM
CCCCCCCCC(=O)O[C@@]12[C@H](OC(=O)/C=C/c3ccc(F)cc3)[C@@H](C)[C@@]3(O)[C@@H](C=C(CO)C[C@]4(O)C(=O)C(C)=C[C@@H]34)[C@@H]1C2(C)C,C8166,MTT,34.24 µM
CCCc1cc(=O)oc2cc(OCC(C)(C)C(=O)O)c3c(c12)OC(C)(C)C=C3,CV-1,-,10 µg/mL
Nc1nc2ccccc2[nH]c1=O,MCF-7 breast cancer cells,sulforhodamine,1.28 µM
Cc1cc(C)n(-c2nc3c(c(=O)n2-c2ccc(NC[C@@H](O)CO)nc2)C[C@@H](C)N(C(=O)c2ccc(Br)c(C(F)(F)F)c2)C3)n1,HepG2.117,luminescence,>0.5 µM
CC(C)[C@H](NC(=O)[C@H](Cc1ccccc1)CS(=O)(=O)C(C)(C)C)C(=O)N[C@@H](Cc1ccccc1)[C@@H](O)[C@H](O)[C@H](Cc1ccccc1)NC(=O)[C@@H](NC(=O)[C@H](Cc1ccccc1)CS(=O)(=O)C(C)(C)C)C(C)C,PBLC,-,>0.023 µM
O=C(CCCCCCCCc1ccccc1)c1c(O)cc(O)cc1O,NCI-H187,resazurin,>20 µg/mL
COc1c(OCC(C)C)ccc2c1c(=O)c(C)c(-c1ccccc1)n2C,HeLa S3,MTT,>10 µg/mL
Cc1cc(C)n(-c2nc3c(c(=O)n2-c2ncc(N)cn2)C[C@@H](C)N(C(=O)c2ccc(Br)c(C(F)(F)F)c2)C3)n1,HepG2.117,luminescence,>0.5 µM
O=C(NCCc1ccc2c(n1)NCCC2)NCc1ccccc1Cl,PBMC,-,50 µM
CCCCCCCCC(=O)O[C@@]12[C@H](OC(=O)/C=C/c3ccc4c(c3)OCO4)[C@@H](C)[C@@]3(O)[C@@H](C=C(CO)C[C@]4(O)C(=O)C(C)=C[C@@H]34)[C@@H]1C2(C)C,C8166,MTT,37.7 µM
CCCCNc1ccc2c(c1)Cc1cc(NC(N)=S)ccc1-2,Ava5-EG(delta4AB)SEAP,MTS,>1 µM
CC(C)[C@H](NC(=O)CCS(=O)(=O)C(C)(C)C)C(=O)N[C@@H](Cc1ccccc1)[C@@H](O)[C@H](O)[C@H](Cc1ccccc1)NC(=O)[C@@H](NC(=O)CCS(=O)(=O)C(C)(C)C)C(C)C,PBLC,-,>1 µM
N#Cc1cc(-c2ccccc2)n(-c2nc3ccccc3[nH]2)c1N,MCF-7 breast cancer cells,sulforhodamine,1.28 µg/mL
C/C=C/C(=O)O[C@@]12[C@H](O)[C@@H](C)[C@@]3(O)[C@@H](C=C(CO)C[C@]4(O)C(=O)C(C)=C[C@@H]34)[C@@H]1C2(C)C,C8166,MTT,>200 µM
Nc1c(-c2nc3ccccc3[nH]2)cc(-c2ccccc2)n1-c1ccc(Cl)cc1,A549 lung cancer cells,resazurin,12 µM
CC(C)[C@H](NC(=O)[C@H](Cc1cccc2ccccc12)CS(=O)(=O)C(C)(C)C)C(=O)N[C@@H](Cc1ccccc1)[C@H](O)[C@H](O)[C@H](Cc1ccccc1)NC(=O)[C@@H](NC(=O)[C@H](Cc1cccc2ccccc12)CS(=O)(=O)C(C)(C)C)C(C)C,PBLC,-,>0.217 µM
CC(=O)Nc1cc(=O)n(O)c2ncccc12,HeLa,-,<100 µM
S=C(NCCc1ccccc1)Nc1cccc(OCCCCCc2ccccc2)c1,Ava5-EG(delta4AB)SEAP,MTS,>1 µM
O=C(NCCc1ccc2c(n1)NCCC2)NCC1CC1,PBMC,-,50 µM
OC[C@H]1O[C@@H](n2c(Br)nc3cc(Cl)c(Cl)cc32)[C@H](O)[C@@H]1O,IM9,-,35–72 µM
CC(C)C[C@@H]1NC(=O)[C@H](Cc2c[nH]c3ccccc23)NC(=O)[C@@H](CCCN)NC(=O)[C@H](CC(N)=O)NC(=O)[C@H](C(C)C)NC(=O)[C@@H](CC(C)C)NC1=O,Hep2G,luminescence,56 µM
O=S(=O)(NCCc1ccc2c(n1)NCCC2)c1ccccc1,PBMC,-,50 µM
NC(=S)Nc1cccc(OCCCc2ccccc2)c1,Ava5-EG(delta4AB)SEAP,MTS,>1 µM
CC(c1ccccc1)N1CCN(c2cccc(-c3cc(=O)n(O)c4ncccc34)c2)CC1,HeLa,-,<100 µM
CCn1c(-c2cccc(OC)c2)c(C)c(=O)c2cc(C(C)C)ccc21,HeLa S3,MTT,>8 µg/mL
Nc1nc2c(ncn2COC(CO)CO)c(=O)[nH]1,CEM-CD+4,-,35–72 µM
Cc1cn([C@@H]2O[C@H](CO)[C@@H](O)[C@@H]2O)c(=O)[nH]c1=O,HELF,-,150 µg/mL
CCn1c(-c2cccc(F)c2)c(C)c(=O)c2cc(C(C)C)ccc21,HELA-OHIO,MTT,>4 µg/mL
O=C(CCc1ccc2c(n1)NCCC2)NCc1ccc(Cl)c(Cl)c1,PBMC,-,13 µM
Nc1c(-c2nc3ccccc3[nH]2)cc(-c2ccccc2)n1-c1ccncc1,MCF-7 breast cancer cells,sulforhodamine,0.705 µg/mL

A second listing of 6 rows from above:

CC[C@@H](C)[C@@H]1NC(=O)[C@@H](Cc2ccc(Cl)cc2)NC(=O)[C@H](CC(C)C)NC(=O)[C@H](Cc2c[nH]c3ccccc23)NC(=O)[C@@H](CCCN)NC(=O)[C@@H](CCCN)NC1=O ; cells: Hep2G ; read by: luminescence ; result: >100 µM
CCCc1cc(=O)oc2c(C(=O)CC)c(O)c(C(=O)CC)c(O)c12 ; cells: CV-1 ; result: 80 µg/mL
Cc1cc(C)n(-c2nc3c(c(=O)n2-c2ccc(N4CC[C@H](O)C4)nc2)C[C@@H](C)N(C(=O)c2ccc(Br)c(C(F)(F)F)c2)C3)n1 ; cells: HepG2.117 ; read by: luminescence ; result: >0.5 µM
CCCCCCCCCCC(=O)O[C@@H]1[C@@H](C)[C@@]2(O)[C@@H](C=C(CO)C[C@]3(O)C(=O)C(C)=C[C@@H]23)[C@@H]2C(C)(C)[C@]12OC(=O)CCCCCCCCCC ; cells: C8166 ; read by: MTT ; result: >200 µM
O=C(CCCCCCCCc1ccccc1)c1c(O)cc(O)cc1O ; cells: NCI-H187 ; read by: resazurin ; result: >20 µg/mL
CC(C)[C@H](NC(=O)[C@H](Cc1ccccc1)CS(=O)(=O)C(C)(C)C)C(=O)N[C@@H](Cc1ccccc1)[C@@H](O)[C@H](O)[C@H](Cc1ccccc1)NC(=O)[C@@H](NC(=O)[C@H](Cc1ccccc1)CS(=O)(=O)C(C)(C)C)C(C)C ; cells: PBLC ; result: >0.023 µM